Anti-infective test results gathered from many reports (values: NIAID ChemDB through PubChem).

Shared fields: growth or infection tests; species: HIV-1; measure: fold resistance

Neighbouring rows are from separate reports.

{"SMILES": "CCCCCOC(=S)Nc1ccc(Cl)c(C(=O)OC(C)C)c1", "changes": "RT-V106A", "cells": "CEM", "read by": "syncytia", "result": "18.2"}
{"SMILES": "Nc1nc(NC2CC2)c2ncn([C@H]3C=C[C@@H](CO)C3)c2n1", "strain or isolate": "XM-Q151M", "changes": "RT-A62V V75I F77C F116Y Q151M", "cells": "MT-4", "read by": "p24", "result": "2.4"}
{"SMILES": "C#CCOC(=O)c1cc(NC(=S)OC(C)C)ccc1Cl", "changes": "RT-Y181C", "cells": "CEM", "read by": "syncytia", "result": "≥34.5"}
{"SMILES": "CC(C)c1c(Sc2ccccc2)n(COCc2ccccc2)c(=S)[nH]c1=O", "strain or isolate": "IIIB", "changes": "RT-Y181C", "cells": "CEM", "read by": "syncytia", "result": "100"}
{"SMILES": "C[C@H]1CO[C@@H]2Cn3cc(C(=O)NCc4ccc(F)cc4F)c(=O)c(O)c3C(=O)N12", "strain or isolate": "NL4-3", "changes": "Y143R", "cells": "CBMC", "read by": "RT activity", "result": "1.7"}
{"SMILES": "CC(C)OC(=S)Nc1ccc(Cl)c(/C=N/OC(C)(C)C)c1", "strain or isolate": "CALO(RT-T139I)", "changes": "RT-T139I", "cells": "CEM + CEM-SS", "read by": "cytopathic effect / XTT", "result": "4"}
{"SMILES": "CC(C)OC(=S)Nc1ccc(Cl)c(C(=O)OC2CC2)c1", "changes": "RT-Y181C", "cells": "CEM", "read by": "syncytia", "result": "20.1"}
{"SMILES": "CCc1c(C)[nH]c(=O)c(SCCC(N)=O)c1Oc1cc(C)cc(C)c1", "changes": "RT-Y188L", "cells": "MT-4", "read by": "cytopathic effect / MTT", "result": "201"}
{"SMILES": "CC(C)OC(=O)c1cc(NC(=S)OCC2(C)COC2)ccc1Cl", "changes": "RT-V106A", "cells": "CEM", "read by": "syncytia", "result": ">1.07"}
{"SMILES": "CCc1c(C)[nH]c(=O)c(I)c1Oc1cc(C)cc(C)c1", "changes": "RT-L100I", "cells": "MT-4", "read by": "cytopathic effect / MTT", "result": "5"}
{"SMILES": "Cc1cc(C#N)cc(C(=O)c2cc(Cl)ccc2OCC(=O)Nc2ccc(OCCCN3CC=CC3)cc2C)c1", "strain or isolate": "HXB2", "changes": "RT-K103N P225H", "cells": "HeLa + HELA CD4+", "read by": "β-galactosidase", "result": "~1"}
{"SMILES": "CC(C)[C@H](NC(=O)OCc1ccccn1)C(=O)N[C@@H](Cc1ccccc1)[C@@H](O)C[C@H](Cc1ccccc1)NC(=O)OCc1cccnc1", "strain or isolate": "NL4-3", "changes": "PR-M46I L63P V82T", "cells": "MT-4", "read by": "p24", "result": "3.75"}
{"SMILES": "CCc1c(C)[nH]c(=O)c(CC)c1Oc1cc(C)cc(C)c1", "changes": "RT-Y181C", "cells": "MT-4", "read by": "cytopathic effect / MTT", "result": "13"}
{"SMILES": "CC(C)OC(=S)Nc1ccc(Cl)c(C(=O)OC(C(C)C)C(C)C)c1", "changes": "RT-E138K", "cells": "CEM", "read by": "syncytia", "result": "≥14.3"}
{"SMILES": "CCc1c(C)[nH]c(=O)c(OC)c1Oc1cc(C)cc(C)c1", "changes": "RT-Y188L", "cells": "MT-4", "read by": "cytopathic effect / MTT", "result": "318"}
{"SMILES": "Cc1ccc(C2CC2)c(-c2ccc3c(c2)CCCO3)c1[C@H](OC(C)(C)C)C(=O)O", "strain or isolate": "NL4-3", "changes": "PI-resistant ARP-11803 (L33F/E34T/K43T/G48V/I54S/L63P/A71V/V82A)", "cells": "MT-4", "read by": "luminescence", "result": "1"}
{"SMILES": "C=C(Cl)COc1cc(NC(=S)c2ccoc2C)ccc1Cl", "strain or isolate": "HEPT-resistant (RT Y188H)", "changes": "RT-Y188H", "cells": "CEM", "read by": "syncytia", "result": "42.6"}
{"SMILES": "CC(C)OC(=S)Nc1ccc(Cl)c(C(=O)OCc2ccccc2)c1", "changes": "RT-E138K", "cells": "CEM", "read by": "syncytia", "result": "1.86"}
{"SMILES": "Cc1occc1C(=S)Nc1ccc(Cl)c(/C=N/OC(C)(C)C)c1", "strain or isolate": "4xAZT(RT-D67N K70R T215Y K219Q)", "changes": "RT-D67N K70R T215Y K219Q", "cells": "CEM + CEM-SS", "read by": "cytopathic effect / XTT", "result": "0.5"}
{"SMILES": "CCN1c2ncc(CCOc3ccc(Nc4nc(C(=O)O)cs4)cc3C)cc2C(=O)N(C)c2cccnc21", "changes": "RT-K103N Y181C", "cells": "C8166", "read by": "p24", "result": ">1"}
{"SMILES": "Cc1cc(S(N)(=O)=O)ccc1NC(=O)COc1ccc(Cl)cc1C(=O)c1cc(F)cc(C#N)c1", "strain or isolate": "HXB2", "changes": "RT-Y181C", "cells": "HeLa + HELA CD4+", "read by": "β-galactosidase", "result": "~1"}
{"SMILES": "CCN1c2ncc(CCOc3ccc(-c4ccncc4)cc3C)cc2C(=O)N(C)c2cccnc21", "changes": "RT-K103N Y181C", "cells": "C8166", "read by": "p24", "result": "1"}
{"SMILES": "CC(C)(C)OC(=O)c1cc(NC(=S)OC(C)(C)C)ccc1Cl", "changes": "RT-L100I", "cells": "CEM", "read by": "syncytia", "result": ">15.4"}
{"SMILES": "C=Cc1c(Oc2cc(C)cc(C)c2)c(CC)c(C)[nH]c1=O", "changes": "RT-K103N", "cells": "MT-4", "read by": "cytopathic effect / MTT", "result": "1"}
{"SMILES": "CCN1c2ncc(CCOc3ccc(-c4ccc(C(=O)O)o4)cc3C)cc2C(=O)N(C)c2cccnc21", "changes": "RT-K103N Y181C", "cells": "C8166", "read by": "p24", "result": ">5"}
{"SMILES": "Cc1cc(C)cc(Sc2c(C(C)C)c(=O)[nH]c(=S)n2COCCO)c1", "strain or isolate": "IIIB", "changes": "RT-Y188H", "cells": "CEM", "read by": "syncytia", "result": "233"}
{"SMILES": "CC=CCOc1cc(NC(=S)c2ccoc2C)ccc1OC", "strain or isolate": "CALO(RT-T139I)", "changes": "RT-T139I", "cells": "CEM + CEM-SS", "read by": "cytopathic effect / XTT", "result": "3"}
{"SMILES": "CC(C)OC(=S)Nc1ccc(Cl)c(COC(C)(C)C)c1", "changes": "RT-Y181C", "cells": "CEM", "read by": "syncytia", "result": ">2.22"}
{"SMILES": "CCc1c(C)[nH]c(=O)c(Cl)c1Oc1cc(C)cc(C)c1", "changes": "RT-K103N", "cells": "MT-4", "read by": "cytopathic effect / MTT", "result": "3"}
{"SMILES": "CCC(CC)COC(=O)c1cc(NC(=S)OC(C)C)ccc1Cl", "changes": "RT-L100I", "cells": "CEM", "read by": "syncytia", "result": "16.6"}
{"SMILES": "Cc1cc(C)cc(C(=O)c2cc(Cl)ccc2OCC(=O)Nc2ccc(S(N)(=O)=O)cc2C)c1", "strain or isolate": "HXB2", "changes": "RT-V106A Y181C", "cells": "HeLa + HELA CD4+", "read by": "β-galactosidase", "result": "~1"}
{"SMILES": "Cc1cc(C)cc(Cc2c(C(C)C)c(=O)[nH]c(=O)n2COCCO)c1", "strain or isolate": "IIIB", "changes": "Nevirapine resistant (RT Y181C)", "cells": "CEM", "read by": "syncytia", "result": "16.5"}
{"SMILES": "Cc1cc(C#N)cc(C(=O)c2cc(Cl)ccc2OCC(=O)Nc2ccc(S(N)(=O)=O)nc2C)c1", "strain or isolate": "HXB2", "changes": "RT-P225H", "cells": "HeLa + HELA CD4+", "read by": "β-galactosidase", "result": "~1"}
{"SMILES": "CC(C)=CCOc1cc(NC(=S)c2ccoc2C)ccc1Cl", "strain or isolate": "NL4-3", "changes": "RT-K103N", "cells": "CEM + CEM-SS", "read by": "p24", "result": "17"}
{"SMILES": "Cn1c2ccccc2c2c1cc(C#N)c(=O)n2-c1ccc([N+](=O)[O-])cc1", "strain or isolate": "I", "changes": "RT-K101E K103N", "cells": "MT-4", "read by": "cytopathic effect / MTT", "result": "3"}
{"SMILES": "CCC(CC)OC(=O)c1cc(NC(=S)OC(C)C)ccc1Cl", "changes": "RT-E138K", "cells": "CEM", "read by": "syncytia", "result": "15"}
{"SMILES": "Nc1nc(=O)n([C@H]2C=C[C@@H](CO)O2)cc1F", "strain or isolate": "XM-Q151M", "changes": "RT-A62V V75I F77C F116Y Q151M", "cells": "PBMC", "read by": "p24", "result": "15"}
{"SMILES": "CCN1c2ncc(CCOc3ccc(-c4ccc(C(=O)O)s4)cc3)cc2C(=O)N(C)c2cccnc21", "changes": "RT-K103N Y181C", "cells": "C8166", "read by": "p24", "result": "1"}
{"SMILES": "Cc1sccc1C(=O)Nc1ccc(Cl)c(OCC=C(Cl)Cl)c1", "strain or isolate": "TIBO R82913-resistant (RT K103N)", "changes": "RT-K103N", "cells": "CEM", "read by": "syncytia", "result": "22.2"}
{"SMILES": "CCOC(=O)C(C)Oc1cc(NC(=S)OC(C)C)ccc1Cl", "changes": "RT-Y181C", "cells": "CEM", "read by": "syncytia", "result": "13.1"}
{"SMILES": "C=C(Cl)COc1cc(NC(=S)c2ccoc2C)ccc1C", "strain or isolate": "Pyridone-resistant (RT Y181C)", "changes": "RT-Y181C", "cells": "CEM", "read by": "syncytia", "result": "16.3"}
{"SMILES": "Cc1ccccc1OC(=O)c1cc(NC(=S)OC(C)C)ccc1Cl", "changes": "RT-V106A", "cells": "CEM", "read by": "syncytia", "result": "≥25"}
{"SMILES": "CC(C)OC(=O)c1cc(NC(=S)OC(C)C)ccc1Cl", "strain or isolate": "IIIB", "changes": "RT-L100I", "cells": "CEM", "read by": "syncytia", "result": "71"}
{"SMILES": "CC(C)OC(=S)Nc1ccc(Cl)c(C(=O)OCC[Si](C)(C)C)c1", "changes": "RT-Y181C", "cells": "CEM", "read by": "syncytia", "result": "9"}
{"SMILES": "CCN1c2ncc(CCOc3ccc(C(=O)NC(C)(C)C(=O)O)cc3C)cc2C(=O)N(C)c2cccnc21", "changes": "RT-K103N Y181C", "cells": "C8166", "read by": "p24", "result": ">1"}
{"SMILES": "CCOC(=O)c1cc(NC(=S)OC(C)C)ccc1SC", "changes": "RT-E138K", "cells": "CEM", "read by": "syncytia", "result": "66.8"}
{"SMILES": "Cc1occc1C(=S)Nc1ccc(Cl)c(C(=O)OCC2CC2)c1", "strain or isolate": "NL4-3", "changes": "RT-V108I", "cells": "CEM + CEM-SS", "read by": "cytopathic effect / XTT", "result": "1.6"}
{"SMILES": "C/C(Cl)=C/COc1cc(NC(=S)c2ccoc2C)ccc1Cl", "strain or isolate": "TIBO R82913-resistant (RT K103N)", "changes": "RT-K103N", "cells": "CEM", "read by": "syncytia", "result": "30"}
{"SMILES": "C[C@@H]1CCO[C@H]2Cn3cc(C(=O)NCc4ccc(F)cc4F)c(=O)c(O)c3C(=O)N12", "strain or isolate": "NL4-3", "changes": "PI-resistant ARP-11801 (L10F/G16A/L33F/K43T/L63P/A71V/V82A)", "cells": "MT-4", "read by": "luminescence", "result": "1"}
{"SMILES": "N#Cc1cc2[nH]c3ccccc3c2n(-c2ccc([N+](=O)[O-])cc2)c1=O", "strain or isolate": "H", "changes": "RT-K103N Y181C", "cells": "MT-4", "read by": "cytopathic effect / MTT", "result": "5"}
{"SMILES": "Cc1occc1C(=S)Nc1ccc(Cl)c(OCC=C(Cl)Cl)c1", "strain or isolate": "Pyridone-resistant (RT Y181C)", "changes": "RT-Y181C", "cells": "CEM", "read by": "syncytia", "result": "18.8"}
{"SMILES": "CC(C)OC(=O)c1cc(NC(=S)OC(C)C)ccc1Cl", "changes": "RT-L100I", "cells": "CEM", "read by": "syncytia", "result": "73.6"}
{"SMILES": "CCOCn1c(Sc2ccccc2)c(CC)c(=O)[nH]c1=O", "strain or isolate": "IIIB", "changes": "RT-E138K", "cells": "CEM", "read by": "syncytia", "result": "21.7"}
{"SMILES": "COc1ccc(NC(=S)OC(C)C)cc1CC(=O)OC(C)C", "changes": "RT-Y181C", "cells": "CEM", "read by": "syncytia", "result": "67.6"}
{"SMILES": "CCN1c2ncc(CCOc3ccc(-c4csc(C(=O)O)c4)cc3C)cc2C(=O)N(C)c2cccnc21", "changes": "RT-K103N Y181C", "cells": "C8166", "read by": "p24", "result": ">1"}
{"SMILES": "CC(=O)COc1cc(NC(=S)OC(C)C)ccc1Cl", "changes": "RT-E138K", "cells": "CEM", "read by": "syncytia", "result": "7.99"}
{"SMILES": "Cc1occc1C(=S)Nc1ccc(Cl)c(/C=N/OC(C)(C)C)c1", "strain or isolate": "IIIB", "changes": "RT-V179D", "cells": "CEM", "read by": "syncytia", "result": "4"}
{"SMILES": "COc1ccc(NC(=S)C2=C(C)OCCS2)cc1OCC=C(Cl)Cl", "strain or isolate": "TIBO R82913-resistant (RT K103N)", "changes": "RT-K103N", "cells": "CEM", "read by": "syncytia", "result": "9.26"}
{"SMILES": "C=CCO/N=C/c1cc(NC(=S)c2ccoc2C)ccc1Cl", "strain or isolate": "4XAZT/Y181C (RT D67N K70R Y181C T215Y K219Q)", "changes": "RT-D67N K70R Y181C T215Y K219Q", "cells": "CEM + CEM-SS", "read by": "cytopathic effect / XTT", "result": "42.9"}
{"SMILES": "CN1CCN(C(=O)c2ccc3c(=O)c4ccccc4[nH]c3c2)CC1", "changes": "RT-L100I", "cells": "CEM", "read by": "syncytia", "result": "63.8"}

For reference, 7 entries again:

{"SMILES": "C[C@@H]1CCO[C@H]2Cn3cc(C(=O)NCc4ccc(F)cc4F)c(=O)c(O)c3C(=O)N12", "strain or isolate": "NL4-3", "changes": "PI-resistant ARP-11801 (L10F/G16A/L33F/K43T/L63P/A71V/V82A)", "cells": "MT-4", "read by": "luminescence", "result": "1"}
{"SMILES": "Cc1cc(C)cc(Sc2c(C(C)C)c(=O)[nH]c(=S)n2COCCO)c1", "strain or isolate": "IIIB", "changes": "RT-Y188H", "cells": "CEM", "read by": "syncytia", "result": "233"}
{"SMILES": "CCCCCOC(=S)Nc1ccc(Cl)c(C(=O)OC(C)C)c1", "changes": "RT-V106A", "cells": "CEM", "read by": "syncytia", "result": "18.2"}
{"SMILES": "Cn1c2ccccc2c2c1cc(C#N)c(=O)n2-c1ccc([N+](=O)[O-])cc1", "strain or isolate": "I", "changes": "RT-K101E K103N", "cells": "MT-4", "read by": "cytopathic effect / MTT", "result": "3"}
{"SMILES": "Cc1ccc(C2CC2)c(-c2ccc3c(c2)CCCO3)c1[C@H](OC(C)(C)C)C(=O)O", "strain or isolate": "NL4-3", "changes": "PI-resistant ARP-11803 (L33F/E34T/K43T/G48V/I54S/L63P/A71V/V82A)", "cells": "MT-4", "read by": "luminescence", "result": "1"}
{"SMILES": "CCOC(=O)C(C)Oc1cc(NC(=S)OC(C)C)ccc1Cl", "changes": "RT-Y181C", "cells": "CEM", "read by": "syncytia", "result": "13.1"}
{"SMILES": "Cc1occc1C(=S)Nc1ccc(Cl)c(/C=N/OC(C)(C)C)c1", "strain or isolate": "IIIB", "changes": "RT-V179D", "cells": "CEM", "read by": "syncytia", "result": "4"}

Fold resistance: result on the changed form divided by that on wild type.